Measurements from PMC10715191, “Exploration of the novel fluoroquinolones with high inhibitory effect against quinolone-resistant DNA gyrase of Salmonella Typhimurium” (Microbiology Spectrum, 2023).

The chains behind the UniProt entries cited, without tags or fusion partners.
UniProt P37411, whole entry D87N: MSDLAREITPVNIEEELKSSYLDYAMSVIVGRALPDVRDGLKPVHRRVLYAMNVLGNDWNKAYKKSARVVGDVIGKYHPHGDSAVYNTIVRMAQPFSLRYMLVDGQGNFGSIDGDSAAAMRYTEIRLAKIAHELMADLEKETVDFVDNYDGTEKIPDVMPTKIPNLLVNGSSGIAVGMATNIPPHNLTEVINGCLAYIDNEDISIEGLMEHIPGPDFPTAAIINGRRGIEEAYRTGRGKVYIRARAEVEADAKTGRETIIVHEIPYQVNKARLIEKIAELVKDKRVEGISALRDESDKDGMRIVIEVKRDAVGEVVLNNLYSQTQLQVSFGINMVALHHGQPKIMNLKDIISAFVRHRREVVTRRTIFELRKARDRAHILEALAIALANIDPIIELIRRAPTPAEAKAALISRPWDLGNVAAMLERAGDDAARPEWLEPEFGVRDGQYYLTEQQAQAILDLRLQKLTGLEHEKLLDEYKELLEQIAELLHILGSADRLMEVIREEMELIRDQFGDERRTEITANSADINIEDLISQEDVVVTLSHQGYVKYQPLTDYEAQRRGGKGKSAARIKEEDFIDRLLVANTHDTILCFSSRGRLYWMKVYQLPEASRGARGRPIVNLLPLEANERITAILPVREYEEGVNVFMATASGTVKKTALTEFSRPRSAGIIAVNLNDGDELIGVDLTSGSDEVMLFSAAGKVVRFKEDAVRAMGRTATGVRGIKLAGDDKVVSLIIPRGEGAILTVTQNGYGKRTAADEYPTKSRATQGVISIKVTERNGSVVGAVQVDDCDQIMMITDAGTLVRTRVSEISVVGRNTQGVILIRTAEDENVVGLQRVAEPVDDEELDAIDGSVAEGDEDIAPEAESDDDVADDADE
UniProt P37411, whole entry S83F/D87N: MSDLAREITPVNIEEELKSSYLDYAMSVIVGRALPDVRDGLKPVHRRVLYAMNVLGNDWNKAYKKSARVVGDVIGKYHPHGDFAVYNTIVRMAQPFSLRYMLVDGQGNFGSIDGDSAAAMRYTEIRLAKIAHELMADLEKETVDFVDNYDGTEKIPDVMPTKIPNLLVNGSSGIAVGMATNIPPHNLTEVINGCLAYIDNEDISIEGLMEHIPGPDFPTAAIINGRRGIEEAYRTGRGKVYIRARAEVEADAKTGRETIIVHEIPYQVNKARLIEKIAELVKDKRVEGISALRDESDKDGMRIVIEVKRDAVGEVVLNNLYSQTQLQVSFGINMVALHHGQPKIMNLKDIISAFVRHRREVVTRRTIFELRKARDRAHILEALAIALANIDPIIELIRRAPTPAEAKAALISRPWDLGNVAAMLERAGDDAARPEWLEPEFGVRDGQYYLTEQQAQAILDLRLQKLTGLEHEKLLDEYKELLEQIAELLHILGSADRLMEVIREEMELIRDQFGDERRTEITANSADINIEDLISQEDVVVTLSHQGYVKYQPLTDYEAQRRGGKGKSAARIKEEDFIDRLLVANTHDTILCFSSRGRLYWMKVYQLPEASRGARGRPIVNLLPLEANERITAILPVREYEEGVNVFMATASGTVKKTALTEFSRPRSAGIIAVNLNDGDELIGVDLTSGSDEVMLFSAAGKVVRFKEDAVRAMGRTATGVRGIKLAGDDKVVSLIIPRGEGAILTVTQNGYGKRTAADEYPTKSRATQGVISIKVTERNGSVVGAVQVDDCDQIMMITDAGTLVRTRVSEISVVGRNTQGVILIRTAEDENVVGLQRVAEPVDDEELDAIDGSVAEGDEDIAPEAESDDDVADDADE
UniProt P37411, whole entry S83F: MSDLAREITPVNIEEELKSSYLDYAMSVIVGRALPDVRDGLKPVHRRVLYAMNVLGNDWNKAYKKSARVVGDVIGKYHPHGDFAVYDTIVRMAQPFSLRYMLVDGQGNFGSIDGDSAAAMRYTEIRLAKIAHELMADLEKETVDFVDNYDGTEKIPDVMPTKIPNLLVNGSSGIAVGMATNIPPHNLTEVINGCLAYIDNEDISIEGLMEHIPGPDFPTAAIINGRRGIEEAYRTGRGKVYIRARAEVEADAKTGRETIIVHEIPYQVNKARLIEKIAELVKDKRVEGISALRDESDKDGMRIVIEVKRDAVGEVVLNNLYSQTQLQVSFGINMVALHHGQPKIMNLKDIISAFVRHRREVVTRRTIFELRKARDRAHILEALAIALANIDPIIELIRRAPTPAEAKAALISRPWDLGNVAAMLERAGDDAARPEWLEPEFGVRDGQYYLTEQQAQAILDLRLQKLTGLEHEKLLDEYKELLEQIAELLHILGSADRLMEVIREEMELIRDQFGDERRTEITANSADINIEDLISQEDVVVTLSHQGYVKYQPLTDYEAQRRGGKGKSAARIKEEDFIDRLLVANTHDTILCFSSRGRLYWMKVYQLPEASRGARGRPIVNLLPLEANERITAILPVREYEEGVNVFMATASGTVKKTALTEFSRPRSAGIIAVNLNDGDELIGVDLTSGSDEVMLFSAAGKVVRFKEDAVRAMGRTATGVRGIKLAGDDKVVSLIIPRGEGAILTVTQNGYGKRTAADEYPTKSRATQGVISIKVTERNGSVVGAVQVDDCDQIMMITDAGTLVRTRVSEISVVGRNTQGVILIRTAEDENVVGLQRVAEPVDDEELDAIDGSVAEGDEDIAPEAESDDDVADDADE
UniProt P37411, whole entry S83I: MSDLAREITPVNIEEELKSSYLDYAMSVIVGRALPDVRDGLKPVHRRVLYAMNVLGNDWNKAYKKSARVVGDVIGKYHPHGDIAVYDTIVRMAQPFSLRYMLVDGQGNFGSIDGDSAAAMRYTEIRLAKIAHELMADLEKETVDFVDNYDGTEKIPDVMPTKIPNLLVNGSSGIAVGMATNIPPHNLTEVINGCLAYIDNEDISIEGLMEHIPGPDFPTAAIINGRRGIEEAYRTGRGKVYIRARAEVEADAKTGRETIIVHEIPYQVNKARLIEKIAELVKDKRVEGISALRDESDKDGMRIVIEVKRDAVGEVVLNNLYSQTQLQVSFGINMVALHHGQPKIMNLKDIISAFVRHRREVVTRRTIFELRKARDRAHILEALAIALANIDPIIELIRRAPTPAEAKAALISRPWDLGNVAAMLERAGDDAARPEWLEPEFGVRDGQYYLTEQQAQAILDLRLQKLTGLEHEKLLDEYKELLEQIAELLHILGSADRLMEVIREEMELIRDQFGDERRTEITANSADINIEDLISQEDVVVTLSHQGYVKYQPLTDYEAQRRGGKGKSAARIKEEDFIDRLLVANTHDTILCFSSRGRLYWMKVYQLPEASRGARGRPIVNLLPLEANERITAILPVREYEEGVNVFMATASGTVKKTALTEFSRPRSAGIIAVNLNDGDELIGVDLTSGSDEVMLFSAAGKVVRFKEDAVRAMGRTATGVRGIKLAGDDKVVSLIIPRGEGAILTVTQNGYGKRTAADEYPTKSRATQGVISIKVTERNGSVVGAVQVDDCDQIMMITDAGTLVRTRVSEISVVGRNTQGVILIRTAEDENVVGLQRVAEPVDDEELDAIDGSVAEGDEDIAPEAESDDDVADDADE
UniProt P37411, whole entry D87G: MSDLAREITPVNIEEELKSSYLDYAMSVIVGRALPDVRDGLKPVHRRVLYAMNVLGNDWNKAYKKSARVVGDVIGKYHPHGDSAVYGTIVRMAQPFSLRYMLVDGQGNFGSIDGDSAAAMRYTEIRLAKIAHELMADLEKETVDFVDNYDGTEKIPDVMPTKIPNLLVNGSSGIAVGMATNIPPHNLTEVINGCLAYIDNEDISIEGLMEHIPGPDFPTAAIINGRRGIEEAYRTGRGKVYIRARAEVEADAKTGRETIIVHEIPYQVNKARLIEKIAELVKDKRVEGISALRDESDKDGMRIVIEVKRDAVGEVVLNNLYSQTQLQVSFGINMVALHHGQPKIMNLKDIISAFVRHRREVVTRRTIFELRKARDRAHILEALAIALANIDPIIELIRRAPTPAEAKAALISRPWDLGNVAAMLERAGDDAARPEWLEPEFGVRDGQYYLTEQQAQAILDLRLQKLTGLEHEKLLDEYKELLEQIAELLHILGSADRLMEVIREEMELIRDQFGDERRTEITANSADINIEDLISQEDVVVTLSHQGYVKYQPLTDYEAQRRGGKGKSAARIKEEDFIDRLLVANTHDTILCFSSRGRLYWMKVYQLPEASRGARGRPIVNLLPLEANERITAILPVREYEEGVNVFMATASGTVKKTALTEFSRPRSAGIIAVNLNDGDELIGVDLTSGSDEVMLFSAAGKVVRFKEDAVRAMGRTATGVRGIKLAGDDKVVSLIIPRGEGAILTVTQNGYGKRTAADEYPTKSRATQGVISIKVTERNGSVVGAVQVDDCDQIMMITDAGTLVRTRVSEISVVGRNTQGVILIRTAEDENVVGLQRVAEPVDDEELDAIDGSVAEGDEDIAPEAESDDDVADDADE
UniProt P37411, whole entry D87Y: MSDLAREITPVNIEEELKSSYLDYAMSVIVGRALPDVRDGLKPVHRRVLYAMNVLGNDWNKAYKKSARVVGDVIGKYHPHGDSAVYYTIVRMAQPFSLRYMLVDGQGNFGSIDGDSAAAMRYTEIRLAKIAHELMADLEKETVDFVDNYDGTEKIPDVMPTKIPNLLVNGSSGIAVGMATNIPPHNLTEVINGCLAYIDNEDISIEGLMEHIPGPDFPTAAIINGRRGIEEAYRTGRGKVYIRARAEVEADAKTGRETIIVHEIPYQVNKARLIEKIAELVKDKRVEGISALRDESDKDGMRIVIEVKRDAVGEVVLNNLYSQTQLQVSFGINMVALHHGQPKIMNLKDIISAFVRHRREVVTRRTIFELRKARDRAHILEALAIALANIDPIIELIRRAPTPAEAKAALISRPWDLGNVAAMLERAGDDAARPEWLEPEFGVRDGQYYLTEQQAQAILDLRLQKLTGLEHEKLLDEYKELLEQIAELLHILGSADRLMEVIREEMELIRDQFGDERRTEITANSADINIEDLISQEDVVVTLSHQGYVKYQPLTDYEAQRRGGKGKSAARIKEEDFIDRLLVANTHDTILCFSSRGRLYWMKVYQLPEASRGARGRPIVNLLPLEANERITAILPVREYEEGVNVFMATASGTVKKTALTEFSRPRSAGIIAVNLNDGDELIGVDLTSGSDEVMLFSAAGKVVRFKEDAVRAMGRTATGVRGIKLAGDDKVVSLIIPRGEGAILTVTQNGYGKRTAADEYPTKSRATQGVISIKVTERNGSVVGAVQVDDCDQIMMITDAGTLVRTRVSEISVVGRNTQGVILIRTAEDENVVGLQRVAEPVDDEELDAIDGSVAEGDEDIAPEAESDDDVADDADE
UniProt P37411, whole entry S83Y: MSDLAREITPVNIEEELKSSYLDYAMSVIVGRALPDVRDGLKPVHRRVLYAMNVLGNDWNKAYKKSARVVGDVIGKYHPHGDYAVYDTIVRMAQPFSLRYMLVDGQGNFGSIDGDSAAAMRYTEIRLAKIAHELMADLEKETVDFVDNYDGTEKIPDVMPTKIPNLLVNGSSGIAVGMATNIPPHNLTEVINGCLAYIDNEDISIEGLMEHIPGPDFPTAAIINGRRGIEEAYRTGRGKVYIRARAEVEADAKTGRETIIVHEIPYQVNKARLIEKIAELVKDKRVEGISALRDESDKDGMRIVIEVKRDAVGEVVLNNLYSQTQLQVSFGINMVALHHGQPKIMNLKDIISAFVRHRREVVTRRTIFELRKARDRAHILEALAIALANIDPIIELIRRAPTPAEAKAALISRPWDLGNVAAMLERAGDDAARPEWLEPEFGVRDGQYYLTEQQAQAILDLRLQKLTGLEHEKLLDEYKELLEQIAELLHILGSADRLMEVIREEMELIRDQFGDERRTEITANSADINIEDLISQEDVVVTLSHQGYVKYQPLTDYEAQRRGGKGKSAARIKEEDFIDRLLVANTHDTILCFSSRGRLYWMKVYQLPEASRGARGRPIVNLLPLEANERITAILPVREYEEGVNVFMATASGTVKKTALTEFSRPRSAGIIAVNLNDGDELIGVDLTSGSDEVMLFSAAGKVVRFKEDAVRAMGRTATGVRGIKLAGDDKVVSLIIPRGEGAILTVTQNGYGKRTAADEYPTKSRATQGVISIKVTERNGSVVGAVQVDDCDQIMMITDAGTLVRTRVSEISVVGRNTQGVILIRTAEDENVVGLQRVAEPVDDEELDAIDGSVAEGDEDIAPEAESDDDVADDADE

Experiments:
Type in all cases: biochemical
[1] = biological target: T1, Asp87Asn mutant S. Typhimurium DNA gyrase (Salmonella typhimurium, UniProt P0A2I3+P37411, D87N); experiment: Fluoroquinolone-inhibited DNA supercoiling assay, GyrA Asp87Asn DNA gyrase; conditions: read-out: IC50s ± SD, Ap87Asn (converted)
T1 construct: made in house; host or cells: Escherichia coli BL21(DE3)
Text: (§1) Recombinant DNA gyrase was obtained as separate subunits, GyrA and GyrB. In total, plasmids encoding nine subunits including WT GyrA and GyrB as well as seven GyrA with amino acid substitutions (Ser83Phe, Ser83Ile, Ser83Tyr, Asp87Gly, Asp87Asn, Asp87Tyr, and […]) in the quinolone resistance determining region were constructed as described in our previous study ([38]). These plasmids were introduced into Escherichia coli BL21(DE3) (Merck KGaA, Darmstadt, Germany), and protein expression was induced in the bacterial cells. A transformed E. coli was inoculated into Luria-Bertani broth supplemented with ampicillin (50 mg/L) and incubated at 37°C until the optical density value reached 0.60. Expression of GyrA and GyrB was induced by adding 1 mM isopropyl beta-D-1-thiogalactopyranoside (Wako Pure Chemical Industries Ltd, Osaka, Japan) followed by incubation at 16°C for 40 h (for GyrA), or 18°C for 13 h (for GyrB). […] The protein purity was assessed by sodium dodecyl sulfate-polyacrylamide gel electrophoresis (SDS-PAGE) (ATTO, Tokyo, Japan) as shown in Fig. 7.
(§2) […]. […] The amount of supercoiled DNA was quantified by its intensity using ImageJ, the digital image processing software (https://imagej.nih.gov/ij/download.html). […]

[2] = biological target: T2, Ser83Phe-Asp87Asn double-mutant S. Typhimurium DNA gyrase (Salmonella typhimurium, UniProt P0A2I3+P37411, D87N/S83F); experiment: Fluoroquinolone-inhibited DNA supercoiling assay, GyrA Ser83Phe-Asp87Asn DNA gyrase; conditions: read-out: IC50s ± SD, Ser83Phe-Asp87Asn (converted)
T2 construct: made in house; host or cells: Escherichia coli BL21(DE3)
Text: as §1, §2

[3] = biological target: T3, Ser83Phe mutant S. Typhimurium DNA gyrase (Salmonella typhimurium, UniProt P0A2I3+P37411, S83F); experiment: Fluoroquinolone-inhibited DNA supercoiling assay, GyrA Ser83Phe DNA gyrase; conditions: read-out: IC50s ± SD, Ser83Phe (converted)
T3 construct: made in house; host or cells: Escherichia coli BL21(DE3)
Text: as §1, §2

[4] = biological target: T4, Ser83Ile mutant S. Typhimurium DNA gyrase (Salmonella typhimurium, UniProt P0A2I3+P37411, S83I); experiment: Fluoroquinolone-inhibited DNA supercoiling assay, GyrA Ser83Ile DNA gyrase; conditions: read-out: IC50s ± SD, Ser83Ile (converted)
T4 construct: made in house; host or cells: Escherichia coli BL21(DE3)
Text: as §1, §2

[5] = biological target: T5, Asp87Gly mutant S. Typhimurium DNA gyrase (Salmonella typhimurium, UniProt P0A2I3+P37411, D87G); experiment: Fluoroquinolone-inhibited DNA supercoiling assay, GyrA Asp87Gly DNA gyrase
T5 construct: made in house; host or cells: Escherichia coli BL21(DE3)
Text: as §1, §2

[6] = biological target: T6, Asp87Tyr mutant S. Typhimurium DNA gyrase (Salmonella typhimurium, UniProt P0A2I3+P37411, D87Y); experiment: Fluoroquinolone-inhibited DNA supercoiling assay, GyrA Asp87Tyr DNA gyrase
T6 construct: made in house; host or cells: Escherichia coli BL21(DE3)
Text: as §1, §2

[7] = biological target: T7, Ser83Tyr mutant S. Typhimurium DNA gyrase (Salmonella typhimurium, UniProt P0A2I3+P37411, S83Y); experiment: Fluoroquinolone-inhibited DNA supercoiling assay, GyrA Ser83Tyr DNA gyrase; conditions: read-out: IC50s ± SD, Ser83Tyr (converted)
T7 construct: made in house; host or cells: Escherichia coli BL21(DE3)
Text: as §1, §2

O=C(O)c1cn(C2CC2)c2cc(N3CCNCC3)c(F)cc2c1=O [Ciprofloxacin]
IC50 [1]: 5.05 µM
IC50 [2]: 1580 µM
IC50 [3]: 1.38 µM
IC50 [4]: 16.6 µM
IC50 [5]: 1.9 µM
IC50 [6]: 2.02 µM
IC50 [7]: 3.68 µM
